The entries are a selection whose mix differs from that of the whole data set. Some structures show a salt or complex split into parts, the way the source records it. Activity calls are given as the source filed them. Calls follow the shape of the dose curve; as a rule, active = well fitted inhibition curve with a large enough effect; inconclusive = small, poorly fitted or top-dose-only effect, or effect the other way; inactive = flat fitted curve, though single readings scatter.

Protein sequences, listed by entry. Tags and fused reporters are not part of them.
UniProt O15648, whole entry: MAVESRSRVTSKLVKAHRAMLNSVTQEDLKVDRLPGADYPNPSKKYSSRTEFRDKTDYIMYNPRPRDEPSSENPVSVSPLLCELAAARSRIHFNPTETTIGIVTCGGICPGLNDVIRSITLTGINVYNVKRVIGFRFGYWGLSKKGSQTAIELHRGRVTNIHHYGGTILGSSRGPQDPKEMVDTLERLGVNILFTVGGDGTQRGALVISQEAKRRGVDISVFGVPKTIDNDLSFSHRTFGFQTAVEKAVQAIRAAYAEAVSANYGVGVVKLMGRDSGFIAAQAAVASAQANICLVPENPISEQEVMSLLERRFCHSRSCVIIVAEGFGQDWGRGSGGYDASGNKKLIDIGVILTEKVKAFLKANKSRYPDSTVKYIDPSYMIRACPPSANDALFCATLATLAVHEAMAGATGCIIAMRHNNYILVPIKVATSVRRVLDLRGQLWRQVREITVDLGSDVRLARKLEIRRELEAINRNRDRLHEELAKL

The record followed here is PubChem BioAssay AID485367 (National Center for Advancing Translational Sciences (NCATS), 2010).

For this experiment, the target named is ATP-dependent 6-phosphofructokinase (Trypanosoma brucei brucei) (UniProt O15648). The experiment in a line: qHTS Assay to Find Inhibitors of T. brucei phosphofructokinase. Also: nearly all actives have a fitted effect of over 60% in size. Particulars: T. brucei PFK, ADP-Glo luminescence; at 57.5 µM (top of the series). From the text:
NIH Molecular Libraries Probe Production Network [MLPCN] NIH Chemical Genomics Center [NCGC] Grant: 1 R03 MH092153-01 PI Name: Malcolm Walkinshaw, University of Edinburgh NCGC Assay Overview: Various species of the protozoan family Trypanosomatidae are responsible for a range of serious human diseases in tropical and subtropical areas of the world. […] Many of the disorders caused by trypanosomatids are fatal if left untreated, but most currently used drugs are inefficient and toxic. […] Oxidative metabolism involving the mitochondrial tricarboxylic acid cycle and oxidative phosphorylation are repressed in these parasites, and recent RNA interference (RNAi) experiments have shown that even partial depletion of certain individual glycolytic enzymes can lead to the death of cultured parasites. One such glycolytic enzyme, phosphofructokinase (PFK), catalyzes the formation of fructose-1,6-bisphosphate (F1,6BP) and ADP from fructose-6-phosphate (F6P) and ATP, and in many metabolic circumstances makes an important contribution to the control of flux through the glycolytic pathway. As a specific glycolytic target, PFK is particularly attractive as it catalyzes the first irreversible step in glycolysis, and structural and kinetic studies have shown very substantial and essential differences from corresponding host enzymes, allowing for the discovery of parasite-selective inhibitors. The goal of this screen is to find small-molecule inhibitors of T. brucei PFK using a biochemical assay that measures PFK activity as a function of ADP production. A luminescence-based assay for T. brucei PFK activity has been developed which uses luciferase to detect production of ADP. Traditional luciferase-based nucleotide detection reagents rely on ATP production as a direct substrate for the luciferase reaction; however, PFK catalyzes the transfer of a phosphate from ATP to F6P, resulting in the net depletion of ATP. To directly measure the ADP product of the PFK reaction, we used the ADP-Glo detection kit (Promega), which utilizes two separate reactions to 1) deplete all remaining uncatalyzed ATP and 2) convert all remaining ADP to ATP, which is then detected through a traditional luciferase-coupled reaction. Compounds were screened as a concentration-titration series that ranged from 57 uM to 0.7 nM.
NCGC Assay Protocol Summary: NCGC Assay Protocol Summary: Substrate buffer was dispensed into white, solid 1536-well plates at 3uL/well in 0.1M triethanolamine (TEA) buffer, pH 8.0, containing final concentrations of 5 mM MgCl2, 0.01% Tween20, 0.5 mM fructose-6-phosphate (F6P) and 0.1mM ATP. Then, 23 nL of compounds or DMSO were delivered to each well using a pin tool. One uL T. brucei PFK (0.1M TEA, 0.01% Tween20, 0.1% bovine serum albumin (BSA) and 1.25nM PFK, final concentrations) was then dispensed, and plates were incubated at room temperature for 45 min. The luminescent detection reagent, ADP-Glo (Promega), was then added in two steps: the first reagent, ADP-Glo (which converts remaining uncatalyzed ATP), was added at 2.5uL/well and incubated for ten minutes at room temperature, and the second component, Kinase Detection reagent (which converts ADP to ATP as a substrate for luciferase-based luminescence), was added immediately after at 5uL/well, followed by one final ten minute room temperature incubation. The plates were measured on a ViewLux plate reader for luminescent signal using a clear filter with a one second exposure. The %Activity was determined from the corrected luminescence values. As no specific T. brucei PFK inhibitors have been identified in the literature, 1x (1.25nM) and 0x PFK enzyme controls (untreated) were included to normalize %Activity of identified inhibitors; 0x enzyme values corresponded to 100%Activity (full inhibition), while 1x PFK enzyme values were used to normalize 0%Activity (no inhibition). Concentration-response curves were fitted to the signals arising from the resulting luminescence. […]
In general terms: In qHTS, concentration-response curves come from the screen itself.
Take `COc1cc(OC)cc(C(=O)NCC2(N3CCCCC3)CCCCC2)c1`: the activity, negative = inhibition was inactive: -0.0501%. To `Cc1ccc(C(=O)NCC2(N3CCCCC3)CCCCC2)o1` belongs inactive: -2.11%; to `Fc1ccccc1NC1CCN(Cc2ccccc2)CC1`, inactive: -3.1%; to `CCN1CCC(Nc2cccc(F)c2)CC1`, inactive: -6.59%.

Take `O=C(NCC1(N2CCCCC2)CCCCC1)c1ccco1`: the activity, negative = inhibition was inactive: -2.69%.

Take `CN(C)c1ccc(C(=O)NCC2(N3CCCCC3)CCCCC2)cc1`: the activity, negative = inhibition is inactive: -0.971%. Take `CCOc1ncccc1C(=O)NCC1(N2CCOCC2)CCCCC1`: the activity, negative = inhibition was inactive: 1.48%. Take `CN1CCC(Nc2ccc(F)c(Cl)c2)CC1`: the activity, negative = inhibition is inactive: -22.6%. To `CC(C)(C)OC(=O)N1CCC(Nc2ccccc2)CC1` belongs inactive: -0.987%; to `O=C(O)C1(Nc2ccccc2)CCN(Cc2ccccc2)CC1`, inactive: -2.1%. The result for `CCCOc1ccc(C(=O)NCC2(N(C)C)CCCCC2)cc1` reads inactive: -6.98%; that for `COc1cccc(C(=O)N(c2cc(C)cc(C)c2)C2CCN(C(=O)OC(C)(C)C)CC2)c1`, inactive: -5.73%; that for `COc1cc(OC)cc(C(=O)NCC2(N3CCOCC3)CCCCC2)c1`, inactive: -2.4%. The result for `CCC(CO)(C(=O)OC1CN2CCC1CC2)c1ccccc1` (stereo not drawn) reads inactive: 3.01%. As to `CN1CCC(Nc2ccc(Cl)cc2)CC1`, the activity, negative = inhibition was inactive: 2.27%.

Regarding `CCCOc1ccc(C)cc1CN(CCCl)CCCl`, the activity, negative = inhibition is inactive: 7.55%.

Regarding `COc1cc(C(=O)NCC2(N3CCOCC3)CCCCC2)cc(OC)c1C`, the activity, negative = inhibition was inactive: -6.58%. As for `O=C(NCC1(N2CCOCC2)CCCCC1)c1cc(Br)ccc1Cl`, the activity, negative = inhibition was inactive: -6.24%. To `COc1ccc(C(=O)NCC2(N3CCOCC3)CCCCC2)cc1OC` belongs inactive: -8.39%. Turning to `CCOC(=O)N1CCC(Nc2ccc(C)cc2)CC1`, the activity, negative = inhibition was inactive: 3.58%. The result for `N/C(=N\O)c1c(N)no[n+]1[O-]` reads inactive: -0.711%; that for `O=C(OC1CN2CCC1CC2)C1c2ccccc2C=Cc2ccccc21` (stereo not drawn), inactive: 0.708%. To `CCc1cc(C(=O)NCC2(N3CCCCC3)CCCCC2)sc1C` belongs inactive: -0.562%; to `O=C(O)c1cccc(Nc2c([N+](=O)[O-])cc([N+](=O)[O-])cc2[N+](=O)[O-])c1`, inactive: -13.2%; to `N#Cc1ccc(C(=O)NCC2(N3CCCCC3)CCCCC2)cc1`, inactive: 2.31%. In the case of `CC(C)(C)OC(=O)N1CCC(N(C(=O)c2ccccc2)c2ccc(Cl)cc2)CC1`, the activity, negative = inhibition was inactive: -1.18%.

For the molecule `CCOC(=O)C(CC)C1=NC(C)(C)Cc2ccccc21.O=[N+]([O-])c1cc([N+](=O)[O-])c(O)c([N+](=O)[O-])c1` (stereo not drawn), the activity, negative = inhibition was inactive: 0.455%. Regarding `CN(C)C1(CNC(=O)c2cccc(C#N)c2)CCCCC1`, the activity, negative = inhibition is inactive: 1.22%. In the case of `c1ccc(CN2CCC(Nc3ccccc3)CC2)cc1`, the activity, negative = inhibition is inactive: -2.13%.

For `CCCN1CCC(Nc2cc(OC)cc(OC)c2)CC1`, the activity, negative = inhibition was inactive: -9.55%. Regarding `O=C(NCC1(N2CCCCC2)CCCCC1)c1ccc(OC(F)F)cc1`, the activity, negative = inhibition was inactive: 0.444%. To `CCN1CCC(Nc2ccc(Cl)cc2)CC1` belongs inactive: -2.98%; to `N#CC1(Nc2ccccc2)CCN(CCc2ccccc2)CC1`, inactive: 5.97%; to `O=C(NCC1(N2CCCCC2)CCCCC1)c1cccc([N+](=O)[O-])c1`, inactive: 3.69%. The result for `CSc1ccc(C(=O)NCC2(N3CCOCC3)CCCCC2)cc1` reads inactive: -0.64%; that for `O=[N+]([O-])c1cc([N+](=O)[O-])c(NCC2CCS(=O)(=O)C2)c([N+](=O)[O-])c1` (stereo not drawn), inactive: 12.8%; that for `O=C(NCC1(N2CCCCC2)CCCCC1)c1cccc(C(F)(F)F)c1`, inactive: 3.28%. `O=C(NCC1(N2CCOCC2)CCCCC1)c1cc(=O)[nH]c2ccccc12`: the activity, negative = inhibition is inactive: -1.47%.

Consider `COc1cc(C(=O)NCC2(N3CCCCC3)CCCCC2)ccc1OC(F)F`, for which the activity, negative = inhibition is inactive: 2.61%.

With `CC(C)c1ccc(C(=O)NCC2(N3CCOCC3)CCCCC2)cc1`, the activity, negative = inhibition was inactive: 24.7%. The result for `COc1ccc(NC2CCN(C(=O)OC(C)(C)C)CC2)cc1` reads inactive: -1.73%; that for `CC(C)c1ccc(NC2CCN(C(=O)OC(C)(C)C)CC2)cc1`, inactive: -1.91%; that for `COc1ccc(CN(CCCl)CCCl)cc1Cl`, inactive: -0.855%.

Regarding `CN(C)c1cccc(C(=O)NCC2(N3CCCCC3)CCCCC2)c1`, the activity, negative = inhibition is inactive: -3.34%. The result for `O=[N+]([O-])c1cc([N+](=O)[O-])c(OC2CCCCC2O)c([N+](=O)[O-])c1` (stereo not drawn) reads inactive: 3.22%; that for `COc1cc(OC)c(C(=O)NCC2(N(C)C)CCCCC2)cc1OC`, inactive: -12.4%. Consider `O=C(NCC1(N2CCOCC2)CCCCC1)c1cc(F)c(F)cc1Cl`, for which the activity, negative = inhibition is inactive: -7.59%. The result for `O=C(OC1CN2CCC1CC2)c1ccc([N+](=O)[O-])cc1` (stereo not drawn) reads inactive: 2.31%; that for `COc1ccc2c(c1O)-c1c(O)c(OC)cc3c1[C@H](C2)[N+](C)(C)CC3.O=[N+]([O-])c1cc([N+](=O)[O-])c([O-])c([N+](=O)[O-])c1[O-]`, inactive: 25.5%; that for `O=C(NCC1(N2CCCCC2)CCCCC1)c1cncc(Br)c1`, inactive: -0.586%. For `CCCOc1ccc(C(=O)NCC2(N(C)C)CCCCC2)cc1OC`, the activity, negative = inhibition was inactive: 0.0361%.

On to `COc1ccc(C(=O)NCC2(N3CCCCC3)CCCCC2)cc1`, for which the activity, negative = inhibition was inactive: 3.43%. The result for `CC(C)(C)OC(=O)N1CCC(N(C(=O)c2ccccc2)c2ccc(F)cc2)CC1` reads inactive: 3.1%; that for `COc1ccc(C(=O)NCC2(N3CCCCC3)CCCCC2)c(OC)c1OC`, inactive: -3.18%. With `O=C(NCC1(N2CCCCC2)CCCCC1)c1ccc(=O)[nH]c1`, the activity, negative = inhibition was inactive: 4.86%. `O=C(NCC1(N2CCCCC2)CCCCC1)c1cccs1`: the activity, negative = inhibition is inactive: -1.58%. To `CSc1ccccc1C(=O)NCC1(N2CCCCC2)CCCCC1` belongs inactive: -0.399%; to `O=C(NCC1(N2CCCCC2)CCCCC1)c1ccc(Cl)nc1`, inactive: -0.39%.

Regarding `Cc1cc(C)cc(N(C(=O)c2ccccc2)C2CCN(C(=O)OC(C)(C)C)CC2)c1`, the activity, negative = inhibition is inactive: 3.21%.

Take `O=C(NCC1(N2CCOCC2)CCCCC1)c1cc2ccccc2o1`: the activity, negative = inhibition was inactive: 0.348%. To `O=C(OC1CN2CCC1CC2)C1c2ccccc2Oc2ccccc21` (stereo not drawn) belongs inactive: 0.305%. Consider `O=C(NCC1(N2CCCCC2)CCCCC1)c1ccc(Cl)s1`, for which the activity, negative = inhibition was inactive: -5.36%. On to `N#CC1(Nc2ccccc2)CCN(Cc2ccccc2)CC1`, for which the activity, negative = inhibition is inactive: -4.34%. Regarding `COc1ccc(Cl)cc1C(=O)NCC1(N2CCOCC2)CCCCC1`, the activity, negative = inhibition is inactive: 9.43%.

On to `CCOC(=O)N1CCC(Nc2ccc(OC)cc2)CC1`, for which the activity, negative = inhibition was inactive: -0.526%. To `CCOc1ccc(C)cc1CN(CCCl)CCCl` belongs inactive: 1.11%; to `O=C(NCC1(N2CCCCC2)CCCCC1)c1ccc(F)cc1`, inactive: -2.15%. To `CCCCOc1ccc(C(=O)NCC2(N3CCOCC3)CCCCC2)cc1` belongs inactive: -2.63%; to `CCOC(=O)N1CCC(Nc2ccc(F)cc2)CC1`, inactive: 1.92%; to `COc1ccc(NC2CCN(CCc3ccccc3)CC2)c(OC)c1`, inactive: -3.79%. To `COc1cc(C(=O)NCC2(N(C)C)CCCCC2)ccc1OC(F)F` belongs inactive: -0.356%. For the molecule `CCOC(=O)N1CCC(Nc2cccc(C)c2)CC1`, the activity, negative = inhibition was inactive: -3.01%. The result for `Cc1ccc(OCC(C)C)c(CN(CCCl)CCCl)c1` reads inactive: 14.2%.
